Target: the molecule itself
Assay: AUC

| Protein | stoichiometry N |
| --- | --- |
| HEPN^Lpg Q64A (natural protein) MTNIDVRWQQRLNNYARALQQLSLAVNLAQTRPLSDLEKQGLIQAFEFTHELAWNVMKDYFFFAGNSAITGSRDATRESFNKGLIKEGEIWMEMIKSRNQTSHTYNQSVADEIVKNIINFYHTSFQAFLEKMQGLKEHE | 2 |
| HEPN^Lpg R73A (natural protein) MTNIDVRWQQRLNNYARALQQLSLAVNLAQTRPLSDLEKQGLIQAFEFTHELAWNVMKDYFFFQGNSAITGSADATRESFNKGLIKEGEIWMEMIKSRNQTSHTYNQSVADEIVKNIINFYHTSFQAFLEKMQGLKEHE | 2 |

Reference: paper PMC11586414, “Structural insight into the distinct regulatory mechanism of the HEPN–MNT toxin-antitoxin system in Legionella pneumophila” (Nature Communications, 2024)
